A mixed list of measured activities; the numbers were collected in NIAID ChemDB.

All rows: host cell toxicity; cells: HepG2.2.15; endpoint: CC50

CCn: concentration that lowers growth or viability of the cells by n%.

compound | method | value
COC(=O)C1=C(CN2[C@@H]3CC[C@@H]2COC3)NC(c2ncc(F)cc2F)=N[C@H]1c1ccc(F)cc1Cl | - | 9 µM
C=C(C)[C@@H]1CC[C@]2(C(=O)OC)CC[C@]3(COC(=O)c4ccccc4)C(CCC4[C@@]5(C)CC[C@H](OC(C)=O)CC5C(C)(C)C[C@]43C)C12 | MTT | 127.2 µM
OCCc1c(N2CCNCC2)nc2ccc(Cl)cc2c1-c1ccccc1Cl | - | <5 µM
CCOC(=O)C1=C(CN2CC(F)(F)[C@@H]3[C@H]2CON3CC[C@](C)(O)C(=O)O)NC(c2nccs2)=N[C@H]1c1ccc(F)c(F)c1Cl | WST / absorbance | >100 µM
CC1(C)[C@@H](O)CC[C@]2(C)[C@H]3C(=O)C=C4[C@@H]5C[C@@](C)(C(=O)OCCOc6ccccc6)CC[C@]5(C)CC[C@@]4(C)[C@]3(C)CC[C@@H]12 | - | 101 µM
C/C=C(/C)C(=O)Oc1c2c(cc3c1-c1c(cc(OC)c(OC)c1OC)C[C@](C)(O)[C@@H](C)C3)OCO2 | MTT | 102 µg/mL
CC(C)(C)C(=O)SCCOP(=O)(OCCOCn1cnc2c(=O)[nH]c(N)nc21)OCCSC(=O)C(C)(C)C | - | 1593 µM
C[C@H](C[C@H](OC(=O)c1ccc(Cl)cc1Cl)[C@@H](OC(=O)c1ccc(Cl)cc1Cl)C(C)(C)O)C1=C2C[C@H](OC(=O)c3ccc(Cl)cc3Cl)[C@H]3[C@@]4(C)CCC(=O)C(C)(C)[C@@H]4CC[C@]3(C)[C@@]2(C)CC1 | - | >1200 µM
CCOC(=O)C1=C(CN2CC(F)(F)[C@@H]3[C@H]2CON3C[C@H](OCC)C(C)(C)C(=O)O)NC(c2nccs2)=N[C@H]1c1cccc(F)c1C | WST / absorbance | 50 µM
CC(C)CC(=O)O[C@@H](C[C@@H](C)C1=C2C[C@H](OC(=O)CC(C)C)[C@H]3[C@@]4(C)CCC(=O)C(C)(C)[C@@H]4CC[C@]3(C)[C@@]2(C)CC1)[C@@H](OC(=O)CC(C)C)C(C)(C)OC(=O)CC(C)C | - | >2000 µM
OCCc1c(N2CCOCC2)nc2ccc(Cl)cc2c1-c1ccccc1Cl | - | >1592 µM
CC1(C)[C@@H](O)CC[C@]2(C)[C@H]3C[C@H]4O[C@]45[C@@H]4C[C@@](C)(C(=O)O)CC[C@]4(C)CC[C@@]5(C)[C@]3(C)CC[C@@H]12 | - | 35.71 µM
COC(=O)C1=C(CN2CCN(c3ncccn3)CC2)NC(c2ncc(F)cc2F)=N[C@H]1c1ccc(F)cc1Cl | - | 10 µM
C[C@H](C[C@H](OC(=O)c1ccc(Cl)cc1Cl)[C@@H](OC(=O)c1ccc(Cl)cc1Cl)C(C)(C)OC(=O)c1ccc(Cl)cc1Cl)C1=C2C[C@H](OC(=O)c3ccc(Cl)cc3Cl)[C@H]3[C@@]4(C)CCC(=O)C(C)(C)[C@@H]4CC[C@]3(C)[C@@]2(C)CC1 | - | >1000 µM
OCCc1c(OCc2c(F)cccc2F)nc2ccc(Cl)cc2c1-c1ccccc1Cl | - | 108.9 µM
CCC(=O)O[C@@H](C[C@@H](C)C1=C2C[C@H](OC(=O)CC)[C@H]3[C@@]4(C)CCC(=O)C(C)(C)[C@@H]4CC[C@]3(C)[C@@]2(C)CC1)[C@@H](OC(=O)CC)C(C)(C)OC(=O)CC | - | >1900 µM
C[C@]1(CO)O[C@@H](n2ccc(=O)[nH]c2=O)[C@H](O)[C@@H]1O | - | >100 µM
CCOC(=O)C1=C(CN2CC(F)(F)[C@H]3[C@@H]2CCN3C[C@@](C)(O)C(=O)O)NC(c2nc(C)cs2)=N[C@H]1c1cccc(F)c1C | WST / absorbance | 25 µM
C/C=C(/C)C(=O)O[C@@H]1c2cc(OC)c(OC)c(OC)c2-c2c(cc3c(c2OC)OCO3)C[C@H](C)[C@@]1(C)O | MTT | 249 µg/mL
Clc1ccc(COC(Cn2ccnc2)c2ccc(Cl)cc2Cl)c(Cl)c1 | MTT | 17.3 µM
C[C@H](C[C@H](OC(=O)c1ccccc1)[C@@H](OC(=O)c1ccccc1)C(C)(C)OC(=O)c1ccccc1)[C@]12CC[C@@]3(C)[C@@]1(C[C@H](OC(=O)c1ccccc1)[C@H]1[C@@]4(C)CCC(=O)C(C)(C)[C@@H]4CC[C@@]13C)O2 | - | >1700 µM
COC(=O)C1=C(CN2CCC3(CN(C)CCO3)C2)NC(c2ncc(F)cc2F)=N[C@H]1c1ccc(F)cc1Cl | - | 25 µM
C/C=C/C(=O)O[C@@H](C[C@@H](C)C1=C2C[C@H](OC(=O)/C=C/C)[C@H]3[C@@]4(C)CCC(=O)C(C)(C)[C@@H]4CC[C@]3(C)[C@@]2(C)CC1)[C@@H](OC(=O)/C=C/C)C(C)(C)O | - | >850 µM
OCCc1c(N2CCCCC2)nc2ccc(Cl)cc2c1-c1ccccc1Cl | - | 155 µM
CCOC(=O)C1=C(CN2CC(F)(F)[C@@H]3[C@H]2CON3CCC(O)C(C)(C)C(=O)O)NC(c2nccs2)=N[C@H]1c1cccc(F)c1C | WST / absorbance | 18.3 µM
CC(=O)O[C@@H](C[C@@H](C)C1=C2C[C@H](OC(C)=O)[C@H]3[C@@]4(C)CCC(=O)C(C)(C)[C@@H]4CC[C@]3(C)[C@@]2(C)CC1)[C@@H](OC(C)=O)C(C)(C)OC(C)=O | - | 1600 µM
[N-]=[N+]=NCCc1c(Cl)nc2ccc(Cl)cc2c1-c1ccccc1Cl | - | >2510 µM
C[C@]1(CO)O[C@@H](n2cc(F)c(N)nc2=O)[C@H](O)[C@@H]1O | - | >100 µM
CC1(C)[C@@H](O)CC[C@]2(C)[C@H]3CC=C4[C@@H]5C[C@@](C)(C(=O)OCc6ccc(C(F)(F)F)cc6)CC[C@]5(C)CC[C@@]4(C)[C@]3(C)CC[C@@H]12 | - | >1500 µM
CC(=O)NCC(=O)O[C@@H](C[C@@H](C)C1=C2C[C@H](OC(=O)CNC(C)=O)[C@H]3[C@@]4(C)CCC(=O)C(C)(C)[C@@H]4CC[C@]3(C)[C@@]2(C)CC1)[C@@H](OC(=O)CNC(C)=O)C(C)(C)O | - | 270 µM
COc1nc2ccc(Cl)cc2c(-c2ccccc2Cl)c1CCO | - | 141.2 µM
C/C=C(/C)C(=O)Oc1c(OC)c(OC)cc2c1-c1c(cc3c(c1OC)OCO3)C[C@H](C)[C@@](C)(O)C2 | MTT | 26.48 µM
C[C@]1(CO)O[C@@H](n2cc(F)c(=O)[nH]c2=O)[C@H](O)[C@@H]1O | - | >100 µM
CCOC(=O)C1=C(CN2CC(F)(F)[C@H]3[C@@H]2CCN3C[C@@](C)(F)C(=O)O)NC(c2nc(C)cs2)=N[C@H]1c1cccc(F)c1C | WST / absorbance | 14.7 µM
COC(=O)C1=C(CN2CCN(C(=O)OC(C)(C)C)CC2)NC(c2ncc(F)cc2F)=N[C@H]1c1ccc(F)cc1Cl | - | 16 µM
CC(C)CC(=O)O[C@@H](C[C@@H](C)C1=C2C[C@H](OC(=O)CC(C)C)[C@H]3[C@@]4(C)CCC(=O)C(C)(C)[C@@H]4CC[C@]3(C)[C@@]2(C)CC1)[C@@H](OC(=O)CC(C)C)C(C)(C)O | - | >1200 µM
C[C@H](C[C@H](OC(=O)COc1ccccc1)[C@@H](OC(=O)COc1ccccc1)C(C)(C)OC(=O)COc1ccccc1)C1=C2C[C@H](OC(=O)COc3ccccc3)[C@H]3[C@@]4(C)CCC(=O)C(C)(C)[C@@H]4CC[C@]3(C)[C@@]2(C)CC1 | - | >1400 µM
COC(=O)C1=C(CN2CCNC(=O)C2)NC(c2ncc(F)cc2F)=N[C@H]1c1ccc(F)cc1Cl | - | 34 µM
CCOC(=O)C1=C(CN2CC(F)(F)[C@H]3[C@@H]2CCN3C[C@H](OC)C(C)(C)C(=O)O)NC(c2nc(C)cs2)=N[C@H]1c1cccc(F)c1C | WST / absorbance | 22.8 µM
OCCc1c(Nn2nnc3ccccc32)nc2ccc(Cl)cc2c1-c1ccccc1Cl | - | 82.4 µM
CC1(C)[C@@H](O)CC[C@]2(C)[C@H]3C(=O)C=C4[C@@H]5C[C@@](C)(C(=O)OCc6cccc(Cl)c6)CC[C@]5(C)CC[C@@]4(C)[C@]3(C)CC[C@@H]12 | - | >1850 µM

For reference, 5 entries again:

compound	method	value
CC1(C)[C@@H](O)CC[C@]2(C)[C@H]3C(=O)C=C4[C@@H]5C[C@@](C)(C(=O)OCCOc6ccccc6)CC[C@]5(C)CC[C@@]4(C)[C@]3(C)CC[C@@H]12	-	101 µM
CCOC(=O)C1=C(CN2CC(F)(F)[C@@H]3[C@H]2CON3C[C@H](OCC)C(C)(C)C(=O)O)NC(c2nccs2)=N[C@H]1c1cccc(F)c1C	WST / absorbance	50 µM
C/C=C(/C)C(=O)Oc1c(OC)c(OC)cc2c1-c1c(cc3c(c1OC)OCO3)C[C@H](C)[C@@](C)(O)C2	MTT	26.48 µM
CC(C)(C)C(=O)SCCOP(=O)(OCCOCn1cnc2c(=O)[nH]c(N)nc21)OCCSC(=O)C(C)(C)C	-	1593 µM
CC(=O)O[C@@H](C[C@@H](C)C1=C2C[C@H](OC(C)=O)[C@H]3[C@@]4(C)CCC(=O)C(C)(C)[C@@H]4CC[C@]3(C)[C@@]2(C)CC1)[C@@H](OC(C)=O)C(C)(C)OC(C)=O	-	1600 µM

Neighbouring rows are from separate reports. Blank or dashed fields: not listed here.